Test results: paper PMC5033645 (Nature structural & molecular biology, 2016)

Target: T1, SUMO-gSV2C: glycosylated human SV2C-L4 (V473-T567) with SUMO, secreted from HEK293 cells (human, UniProt Q496J9 473-567)
T1 sequence: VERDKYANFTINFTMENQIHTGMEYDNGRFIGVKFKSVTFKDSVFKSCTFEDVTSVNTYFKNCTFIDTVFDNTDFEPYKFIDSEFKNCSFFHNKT
Assay: SPR

B1: BoNT/A1 receptor-binding domain (HCA), wild type (domain or fragment)
chain: not shown
KD of the high affinity component (heterogeneous fit): ~15 nM
KD of the low affinity component (heterogeneous fit): ~220 nM
